Measurements reported in PubChem BioAssay AID624099 (ICCB-Longwood, 2012).

Screen: 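Human genes that papillomavirus E2 requires to repress the HPV18 LCR promoter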 (primary screen)
Cell system: human C33A cervical carcinoma cells (HPV-negative) stably expressing BPV1 E2 and an HPV18 LCR luciferase reporter
Reagent: siRNA pool against human genes, 40 nM
Timing: 72 h
Detection: 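HPV18 LCR reporter light per well, converted to plate-wise z-scores that exclude control wells, and averaged over triplicate plates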
Reading the numbers: mean z-score and z-score: higher = stronger reporter signal, weaker E2 silencing
Hit rule: 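Mean z ≥ 2 together with z ≥ 2 in two or more of the three replicates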
Here is a random part of about 21,000 deposited reagents. 497 of them (2.4%) were called active. 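Higher z means weaker E2 silencing; only reporter increases were scored, and knock-downs that hurt cell survival may mask genuine repressor factors.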 A number with no mark means an inactive call. No sequences are given here.

PTGR3: mean z-score = -0.19; z-score, replicate A = -0.16; z-score, replicate B = -0.07; z-score, replicate C = -0.34
PITX3: mean z-score = 0.67; z-score, replicate A = 0.65; z-score, replicate B = 0.66; z-score, replicate C = 0.7
MALL: mean z-score = -0.26; z-score, replicate A = -0.03; z-score, replicate B = -0.5
PPP4R1: mean z-score = 2.16 (active); z-score, replicate A = 2; z-score, replicate B = 2.13; z-score, replicate C = 2.36
ACOT4: mean z-score = 0.14; z-score, replicate A = 0.09; z-score, replicate B = 0.35; z-score, replicate C = -0.02
MZT2B: mean z-score = 0.48; z-score, replicate A = 0.33; z-score, replicate B = 0.86; z-score, replicate C = 0.24
GPR52: mean z-score = -0.66; z-score, replicate A = -0.44; z-score, replicate B = -0.73; z-score, replicate C = -0.82
EXPH5: mean z-score = 0.39; z-score, replicate A = 0.59; z-score, replicate B = 0.34; z-score, replicate C = 0.26
STYK1: mean z-score = 0.53; z-score, replicate A = 0.56; z-score, replicate B = 0.35; z-score, replicate C = 0.69

Targets above whose target name starts with M or m (2):
MALL: mean z-score = -0.26; z-score, replicate A = -0.03; z-score, replicate B = -0.5
MZT2B: mean z-score = 0.48; z-score, replicate A = 0.33; z-score, replicate B = 0.86; z-score, replicate C = 0.24

Continued.
SLX4IP: mean z-score = -0.27; z-score, replicate A = -0.06; z-score, replicate B = -0.58; z-score, replicate C = -0.16
TRIM49B: mean z-score = -0.19; z-score, replicate A = -0.02; z-score, replicate B = -0.45; z-score, replicate C = -0.1
ZNF778: mean z-score = 3.42 (active); z-score, replicate A = 3.52; z-score, replicate B = 3.12; z-score, replicate C = 3.62
WNT5A: mean z-score = 1.05; z-score, replicate A = 1; z-score, replicate B = 1.31; z-score, replicate C = 0.83
TMEM230: mean z-score = 0.26; z-score, replicate A = 0.14; z-score, replicate B = 0.19; z-score, replicate C = 0.45
NEIL2: mean z-score = -0.59; z-score, replicate A = -0.82; z-score, replicate B = -0.49; z-score, replicate C = -0.48
LOC402532 (retired record): mean z-score = -0.52; z-score, replicate A = -0.62; z-score, replicate B = -0.45; z-score, replicate C = -0.51
IFNB1: mean z-score = 1.03; z-score, replicate A = 1.02; z-score, replicate B = 1.09; z-score, replicate C = 0.99
EFEMP1: mean z-score = -0.02; z-score, replicate A = -0.13; z-score, replicate B = -0.17; z-score, replicate C = 0.25
KRTAP10-2: mean z-score = -0.54; z-score, replicate A = -0.35; z-score, replicate B = -0.7; z-score, replicate C = -0.58
TMEM139: mean z-score = -0.84; z-score, replicate A = -0.85; z-score, replicate B = -0.81; z-score, replicate C = -0.85
KYAT3: mean z-score = -0.37; z-score, replicate A = -0.58; z-score, replicate B = 0; z-score, replicate C = -0.52
MNAT1: mean z-score = -0.32; z-score, replicate A = -0.31; z-score, replicate B = -0.27; z-score, replicate C = -0.36
ZNF821: mean z-score = 1.27; z-score, replicate A = 1.6; z-score, replicate B = 1.26; z-score, replicate C = 0.95
DALRD3: mean z-score = -0.9; z-score, replicate A = -1.36; z-score, replicate B = -0.98; z-score, replicate C = -0.38
PLEKHA1: mean z-score = 0.91; z-score, replicate A = 1.09; z-score, replicate B = 0.92; z-score, replicate C = 0.72
PF4: mean z-score = -0.93; z-score, replicate A = -1.02; z-score, replicate B = -0.83; z-score, replicate C = -0.92
ZNF143: mean z-score = -0.44; z-score, replicate A = -0.46; z-score, replicate B = -0.45; z-score, replicate C = -0.4
